Experimental data from PMC10308904, “The Cytomegalovirus M35 Protein Directly Binds to the Interferon-β Enhancer and Modulates Transcription of Ifnb1 and Other IRF3-Driven Genes”.
Construct, isoform or probe ends are uncertain for at least one entry. Tags and fusion partners may be left off the protein sequences shown.

Biological target: T1, M35_S (UniProt D3XDM4)
T1 sequence (looked up): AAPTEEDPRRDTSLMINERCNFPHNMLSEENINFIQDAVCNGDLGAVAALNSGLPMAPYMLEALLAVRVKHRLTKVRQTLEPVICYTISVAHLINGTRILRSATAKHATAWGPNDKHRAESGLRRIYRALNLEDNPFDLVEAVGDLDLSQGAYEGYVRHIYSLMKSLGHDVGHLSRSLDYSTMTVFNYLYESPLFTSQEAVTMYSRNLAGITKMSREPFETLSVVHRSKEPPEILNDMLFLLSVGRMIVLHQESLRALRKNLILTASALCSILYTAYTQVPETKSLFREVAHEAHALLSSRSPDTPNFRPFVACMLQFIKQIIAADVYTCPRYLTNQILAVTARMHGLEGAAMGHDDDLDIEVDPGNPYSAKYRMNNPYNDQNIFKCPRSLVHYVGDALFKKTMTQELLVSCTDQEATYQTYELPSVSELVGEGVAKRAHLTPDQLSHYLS
Test: competition with a labelled probe
Settings: 100x excess vs Bio-IFNb; recombinant protein; residues 2-452

Sequence: TAAATGACATAGGAAAACTGAAAGGGAGAAGTGAAAGTGGGAAATTCCTCTGAATAG / ACTATTCAGAGGAATTTCCCACTTTCACTTCTCCCTTTCAGTTTTCCTATGTCATTT [hIFNb unlabeled competitor]
- binding result: binds
